A mixed list of measured activities; the numbers were collected in NIAID ChemDB.

Common to all: enzyme or target tests; organism: HIV-1; target: Protease

Conditions beyond the fields shown may differ between rows.

structure	read-out	setting	read by	value
Cc1c(O)cccc1C(=O)N[C@@H](Cc1ccccc1)[C@H](O)C(=O)N1CSC(C)(C)[C@H]1C(=O)NN(C)c1ccccc1	IC50	-	HPLC	>0.05 µM
CC(C)(C)OC(=O)N[C@@H](Cc1ccccc1)[C@H](O)CNC[C@@H](O)[C@H](Cc1ccccc1)NC(=O)OC1COC[C@@H]1O	IC50	pH 5.5	HPLC	<10 µM
Cc1ccc(C(=O)N(C)Cc2cccnc2)cc1C(=O)N[C@@H](Cc1ccccc1)[C@@H](O)CN1C[C@H]2CCCC[C@H]2C[C@H]1C(=O)NC(C)(C)C	IC50	-	fluorescence	0.0045 µg/mL
CC(C)C[C@H](NC(=O)[C@@H](NC(=O)CCCCCCCCCCCCCCC(=O)N[C@@H](CC(N)=O)C(=O)N[C@@H](Cc1ccccc1)C(=O)O)C(C)O)C(=O)N[C@@H](Cc1ccccc1)C(N)=O	Ki	-	HPLC	3 µM
Cc1c(O)cccc1C(=O)N[C@@H](Cc1ccccc1)[C@H](O)C(=O)N1CSC(C)(C)C1C(=O)NC(C)(C)c1ccccc1	IC50	-	HPLC	<0.05 µM
CC(C)(C)OC(=O)N[C@@H](CC1CCCCC1)[C@H](O)CNC[C@@H](O)[C@H](CC1CCCCC1)NC(=O)OC(C)(C)C	IC50	pH 5.5	HPLC	<10 µM
Cc1ccc(C(=O)N(C)Cc2ccccn2)cc1C(=O)N[C@@H](CSc1ccc2ccccc2c1)[C@@H](O)CN1C[C@H]2CCCC[C@H]2C[C@H]1C(=O)NC(C)(C)C	IC50	-	fluorescence	0.0113 µg/mL
Cc1ccc(Cl)cc1N1CCN(Cc2cn([C@@H](Cc3ccccc3)[C@H](Cc3ccccc3)NC(=O)OCC3CCC3)nn2)CC1	IC50	-	fluorescence	<5 µM
Cc1ccc(C(=O)N[C@@H](Cc2ccccc2)[C@@H](O)Cc2ccccc2C(=O)NC(C)(C)C)cc1C(=O)N1CCc2ccccc2C1	IC50	-	fluorescence	0.0036 µg/mL
Cc1cccc(C)c1OCC(=O)N[C@@H](Cc1ccccc1)[C@H](O)C(=O)N1CSC(C)(C)[C@H]1C(=O)NC(C)(C)c1ccccc1	IC50	-	HPLC	<0.05 µM
O=C(N[C@@H](Cc1ccccc1)[C@H](Cc1ccccc1)n1cc(CN2CCC(O)(c3cccc(C(F)(F)F)c3)CC2)nn1)OC1CCCC1	IC50	-	fluorescence	>5 µM
CC(C)(C)OC(=O)N[C@@H](Cc1ccccc1)[C@H](O)CNC[C@@H](O)[C@H](Cc1ccccc1)NC(=O)C(C)(O)c1ccccn1	IC50	pH 5.5	HPLC	<10 µM
NC(=O)C[C@H](NC(=O)CCCCCCCCCCCCCCC(=O)N[C@@H](Cc1ccc(F)c(F)c1)C(=O)N[C@@H](Cc1ccccc1)C(N)=O)C(=O)N[C@@H](Cc1ccccc1)C(=O)O	IC50	-	HPLC	1.13 µM
Cc1ccc(Cl)cc1N1CCN(Cc2cn([C@@H](Cc3ccccc3)[C@H](Cc3ccccc3)NC(=O)NC3CCCC3)nn2)CC1	IC50	-	fluorescence	>5 µM
CC(C)(C)OC(=O)N[C@@H](Cc1ccccc1)[C@H](O)CNC[C@@H](O)[C@H](Cc1ccccc1)NC(=O)[C@@H](NC(=O)OCCOc1ccccc1)C(C)(C)C	IC50	pH 5.5	HPLC	<10 µM
CCC(C)[C@H](NC(=O)CCCCCCCCCCCCCCC(=O)Nc1ccccc1C(=O)N[C@@H](Cc1ccccc1)C(=O)O)C(=O)N[C@@H](Cc1ccccc1)C(N)=O	Ki	-	HPLC	0.235 µM
CCOc1ccccc1CNC(=O)[C@H]1N(C(=O)[C@@H](O)[C@H](Cc2ccccc2)NC(=O)c2cccc(O)c2C)CSC1(C)C	IC50	-	HPLC	~0.05 µM
Cc1ccc(C(=O)N(C)Cc2cnccn2)cc1C(=O)N[C@@H](Cc1ccccc1)[C@@H](O)CN1C[C@H]2CCCC[C@H]2C[C@H]1C(=O)NC(C)(C)C	IC50	-	fluorescence	0.0161 µg/mL
Cc1ccc(Cl)cc1N1CCN(Cc2cn([C@@H](Cc3ccccc3)[C@H](Cc3ccccc3)NC(=O)O[C@H]3CCOC3)nn2)CC1	IC50	-	fluorescence	<5 µM
Cc1ccc(C(=O)N(C)Cc2ccncc2)cc1C(=O)N[C@@H](CSc1ccccc1)[C@@H](O)CN1C[C@H]2CCCC[C@H]2C[C@H]1C(=O)NC(C)(C)C	IC50	-	fluorescence	0.0028 µg/mL
O=C(N[C@@H](Cc1ccccc1)[C@H](Cc1ccccc1)n1cc(CN2CCN(c3ccccn3)CC2)nn1)OC1CCCC1	IC50	-	fluorescence	>5 µM
CC(C)[C@H](NC(=O)OC(C)(C)C)C(=O)N[C@@H](Cc1ccccc1)[C@H](O)CNC[C@@H](O)[C@H](Cc1ccccc1)NC(=O)[C@@H](NC(=O)OC(C)(C)C)C(C)C	IC50	pH 5.5	HPLC	>10 µM
Cc1ccc(C(=O)N(C)Cc2ccc3ccccc3n2)cc1C(=O)N[C@@H](Cc1ccccc1)[C@@H](O)CN1C[C@H]2CCCC[C@H]2C[C@H]1C(=O)NC(C)(C)C	IC50	-	fluorescence	0.0007 µg/mL
O=C(N[C@@H](Cc1ccccc1)[C@H](Cc1ccccc1)n1cc(CN2CCN(C3CCCCC3)CC2)nn1)OC1CCCC1	IC50	-	fluorescence	>5 µM
CCC(C)[C@H](NC(=O)CCCCCCCCCCCCCCC(=O)N[C@@H](CC(N)=O)C(=O)N[C@@H](Cc1ccccc1)C(=O)O)C(=O)N[C@@H](Cc1ccc(F)c(F)c1)C(N)=O	IC50	-	HPLC	0.872 µM
Cc1ccc(C(=O)N(C)Cc2ccc3ccccc3c2)cc1C(=O)N[C@@H](Cc1ccccc1)[C@@H](O)CN1C[C@H]2CCCC[C@H]2C[C@H]1C(=O)NC(C)(C)C	IC50	-	fluorescence	0.0066 µg/mL
Cc1ccc(Cl)cc1N1CCN(Cc2cn([C@@H](Cc3ccccc3)[C@H](Cc3ccccc3)NC(=O)OCc3ccccc3)nn2)CC1	IC50	-	fluorescence	>5 µM
NC(=O)C[C@H](NC(=O)CCCCCCCCCCCCCCC(=O)N[C@H](C(=O)N[C@@H](Cc1ccccc1)C(N)=O)C1CCCCC1)C(=O)N[C@@H](Cc1ccccc1)C(=O)O	IC50	-	HPLC	~1 µM
CC1(C)CCC[C@@]1(O)C(=O)N[C@@H](Cc1ccccc1)[C@H](O)CNC[C@@H](O)[C@H](Cc1ccccc1)NC(=O)[C@@]1(O)CCCC1(C)C	IC50	pH 5.5	HPLC	<10 µM

For reference, 2 entries again:

Cc1ccc(Cl)cc1N1CCN(Cc2cn([C@@H](Cc3ccccc3)[C@H](Cc3ccccc3)NC(=O)NC3CCCC3)nn2)CC1 ; read-out: IC50 ; read by: fluorescence ; value: >5 µM
Cc1ccc(C(=O)N(C)Cc2cnccn2)cc1C(=O)N[C@@H](Cc1ccccc1)[C@@H](O)CN1C[C@H]2CCCC[C@H]2C[C@H]1C(=O)NC(C)(C)C ; read-out: IC50 ; read by: fluorescence ; value: 0.0161 µg/mL

Blank or dashed fields: not listed here. ICn: concentration for n% inhibition.